Measured values taken from US5629198A (priority 1991, dated 1997).

Tests used:
male ICR mice = experiment: Repeated-administration toxicity test, 2 weeks (Test Example 10); type: in vivo; conditions: intravenous, 80, 200 and 500 mg/kg/day
Protocol: S-HSA-EDC-Hemin was repeatedly administered for 2 weeks at doses of 80, 200 and 500 mg/kg/day in veins of male ICR mice (Charles River Japan, Inc., 15 mice per group) to observe its effects.

[1] = test system: HTLV-IIIB in human peripheral blood lymphocytes (PBL); experiment: P24 production in HIV-infected PBL (Test Example 6); type: cell-based, HIV (HTLV-IIIB); conditions: sixth day, 8640 min
Protocol: The anti-HIV effects of test substances on human peripheral blood lymphocytes infected with HIV were determined.
After blood is collected from a vein by a syringe whose interior wall is wetted with heparin, PBL is separated from the blood with Ficol. After this PBL cell is inoculated on a 25-cm^2 culture flask containing 10 ml of a RPMI 1640 medium (including IL-2) added with 20% of a fetal bovine serum so as to contain 7×10^5 cells/ml therein, 40 μl (1 mg/ml) of PHA are added to culture the cells for 4 days. After 4 days, the cells are washed. Thereafter, they are used in assaying the anti-HIV effects of the test substances as PBL cells in an HIV-uninfected system for part of them, and in an HIV-infected system for the remainder. The PBL cells are inoculated on a 25-cm^2 culture flask added with 5 ml of the above medium so as to contain 2×10^6 cells therein. Then, 500 μl of S-HSA-Hemin or S-HSA-EDC-Hemin are given in various concentrations thereto so as to conduct culture at 37° C. in the presence of 5% CO2, thereby assaying the cytotoxic effects of the test substances in the various concentrations. With respect to the infected system on the other hand, 8 ml of HTLV-IIIB (10^7 TCID50 /ml) obtained from a culture supernatant of an HIV-persistently infected strain, MOLT-4/HTLV-IIIB are inserted in the PBL cells to culture them for 2 hours. Thereafter, the cells are washed, and then inoculated on a 25-cm^2 culture flask added with 5 ml of the above medium so as to contain 2×10^6 cells therein. In the same manner as described above, S-HSA-Hemin or S-HSA-EDC-Hemin is given in the various concentrations thereto, thereby conducting culture at 37° C. in the presence of 5% CO2. After 3, 6 and 9 days from the beginning of the culture, the number of cells are counted to calculate the quantity of the P24 protein produced and TCID50.

MOLT-4/HTLV-IIIB = experiment: Killing effect on cells persistently infected with HIV (Test Example 1), trypan blue; type: cell-based, human; conditions: 3 days
Protocol: (§1) The cell killing effects of test substances were determined using a cell strain persistently infected with HIV in MOLT-4 cells and MOLT-4 cells.
(§2) MOLT4/HTLV-IIIB, MOLT4/ARV and MOLT4 cell strains were separately inoculated in proportions of 4×10^4 cells/well (200 μl) on a 96-well plate, and the above test substances in various concentrations were separately added in an amount of 20 μl thereto. After each cell sample was cultured for 3 days at 37° C. in the presence of 5% CO2, the culture was diluted to a triple or quadruple amount, thereby counting the number of living cells by a trypan blue dye exclusion test. As a control, 20 μl of PBS were added in place of each test substance. Each numerical value is expressed in terms of the percentage of living cells to the control.

MOLT-4/ARV = experiment: as above; type: cell-based, human; conditions: 3 days
Protocol: as §1, §2

S--HSA--EDC-Hemin: complex of succinylated human serum albumin and EDC-Hemin
signs on the seventh to ninth day (male ICR mice): transient piloerection, reduction in ultromotivity and pronation were found here and there in each dose group
P24 production in infected system ([1]; 15.2 μg/ml): 2.8%
P24 production in infected system ([1]; 30.3 μg/ml): 2.8%
P24 production in infected system ([1]; 60.6 μg/ml): 1.1%
P24 production in infected system ([1]; 91.0 μg/ml): 2.8%
living cells (percentage to the control) (MOLT-4/HTLV-IIIB; 37.9 μg/ml): 69%
living cells (percentage to the control) (MOLT-4/HTLV-IIIB; 113.7 μg/ml): 0%
living cells (percentage to the control) (MOLT-4/HTLV-IIIB; 151.6 μg/ml): 0%
living cells (percentage to the control) (MOLT-4/ARV; 37.9 μg/ml): 72%
living cells (percentage to the control) (MOLT-4/ARV; 151.6 μg/ml): 0%
